Compound potency records, mixed from different reports. Data source: NIAID ChemDB in PubChem.

All rows: tests in culture; agent: Mycobacterium tuberculosis

MIC bound: limit read from a one-dose screen. ECn is the concentration giving n% inhibition of infection, replication or growth. Two numbers with a dash give a range or band. A number after MIC or MFC names an inhibition level or a share of isolates. Percent inhibition refers to the dose given; in toxicity tests it is the harm to the cells. An empty or dashed field is not shown. Lines come from different laboratories, so protocols vary.

structure	strain	dose	cell line	read-out	method	mutations	result
O=C1NC(=O)C2(O)NC(=O)NC2(O)N1	H37Rv	-	-	MIC bound	BACTEC	-	>12.5 µg/mL
COc1cc(/C=N/N=c2/scc(-c3cc4cc(Br)ccc4oc3=O)n2C2CCCCC2)ccc1O	H37Rv	-	-	MIC	-	-	>6.25 µg/mL
O=C(N/N=C/c1ccccc1[N+](=O)[O-])c1ccccc1Cl	-	-	-	MIC	-	-	200 µg/mL
OC(c1cc(-c2ccccc2)nc2c1ccc1ccccc12)C1CCCCN1	H37Rv	-	-	MIC	resazurin	-	0.39 µg/mL
Brc1ccc(Nc2nnc(CCON=C(c3ccccc3)c3ccccc3)o2)cc1	-	12.5 µg/mL	-	inhibition	-	-	7–56%
O=C1N(Cl)C(=O)C(c2ccc(C(F)(F)F)cc2)(c2ccc(C(F)(F)F)cc2)N1Cl	H37Rv	-	-	MIC bound	BACTEC	-	>12.5 µg/mL
Cc1ccc2c(c1)N(CC1CCCCC1)C(=O)c1cc(Cl)nnc1O2	H37Rv	-	-	EC50	BACTEC	-	<12.5 µg/mL
COc1ccc(/C=N/N=c2/scc(-c3cc4cc(Br)ccc4oc3=O)n2C2CCCCC2)cc1OC	H37Rv	-	-	MIC	-	-	>6.25 µg/mL
S=C1SCN(Cc2cccs2)CN1Cc1cccs1	H37Rv	-	-	MIC bound	BACTEC	-	>12.5 µg/mL
O=C(CCN1C(=O)CCC1=O)Nc1ccc(N2CCCCC2)cc1	Clinical isolate (isoniazid-resistant)	-	-	MIC	-	-	≤20 µg/mL
Cc1ccccc1CSc1ncccn1	H37Rv	6.25 µg/mL	-	inhibition	-	-	0%
O=C1NC(Nc2ccc(Cl)cc2)=N/C1=C\c1ccc(Cl)cc1Cl	H37Rv	-	-	EC50	-	-	<12.5 µg/mL
NNC(=O)c1ccccc1O	-	-	-	MIC	-	-	>200 µg/mL
C/C(=N\OCCc1nnc(Nc2ccccc2)o1)c1ccccc1	-	12.5 µg/mL	-	inhibition	-	-	7–56%
O=c1oc2ccccc2cc1-c1cs/c(=N/N=C/c2ccc(Cl)c(Cl)c2)n1C1CCCCC1	H37Rv	-	-	EC50	-	-	>6.25 µg/mL
Cc1ccc2nc(SCc3ccc(Br)cc3)[nH]c2c1	MY 332/88	-	-	MIC	-	-	>32 µM
CC(=O)N1C(=O)CC23c4cccc([N+](=O)[O-])c4C(=O)N2CCCN13	H37Rv	-	-	MIC bound	BACTEC	-	>12.8 µg/mL
CCCCCCCCCN1C(=O)CC(CC)C1=O	Clinical isolate (isoniazid-resistant)	-	-	MIC	-	-	≤20 µg/mL
Cc1c(CSc2nc(=O)[nH]c3nc[nH]c23)cccc1[N+](=O)[O-]	H37Rv	-	-	MIC90	-	-	>6.25 µg/mL
COc1ccccc1-n1cccc(C#N)c1=S	H37Rv	-	-	MIC bound	BACTEC	-	>12.5 µg/mL
COc1nc2ccc(Br)cc2cc1[C@@H](c1ccccc1)[C@@](O)(CCN(C)C)c1cccc2ccccc12	clinical isolate MAL010119	-	-	MIC90	resazurin	-	0.03125 µg/mL
COc1c(O)cc2oc3cc(O)c(CC=C(C)C)c(O)c3c(=O)c2c1CC=C(C)C	PZA-R	-	-	MIC	-	-	12.8 µg/mL
NNC(=O)c1ccncc1	Ravenel #226	-	-	MIC	-	-	<0.5 µg/mL
C/C(=N\OCc1nnc(-c2ccc(Cl)cc2)o1)c1ccccc1	-	12.5 µg/mL	-	inhibition	-	-	7–56%
CCCCCCCN1C(=O)c2cc(Cl)nnc2Oc2ccc(Cl)cc21	H37Rv	12.5 µg/mL	-	inhibition	BACTEC	-	38%
NC(=O)NNC(N)=O	-	-	-	MIC	-	-	>200 µg/mL
N=C1C=CC(=C(c2ccc(N)cc2)c2ccc(N)cc2)C=C1	H37Rv	6.25 µg/mL	-	inhibition	resazurin	-	74%
COc1ccc(/C=N/N=c2/scc(-c3cc4ccccc4oc3=O)n2C2CCCCC2)cc1OC	H37Rv	-	-	EC50	-	-	>6.25 µg/mL
CC(C)=CCOc1c2ccoc2cc2oc(=O)ccc12.NNC(=O)c1ccncc1	H37Rv clinical isolate CRY3	-	-	MIC100	agar	Isoniazid- and rifampicin-resistant	3.12 µg/mL
Cc1ccc(CCNC(=O)c2c3nc4c(C(=O)NCCc5ccc(C)cc5)cccc4oc-3cc(=O)c2N)cc1	H37Rv	12.5 µg/mL	-	inhibition	BACTEC	-	-17%
CO[C@H]1/C=C/O[C@@]2(C)Oc3c(C)c(O)c4c(O)c(c(/C=N/N5CCN(C6CCCC6)CC5)c(O)c4c3C2=O)NC(=O)/C(C)=C\C=C\[C@H](C)[C@H](O)[C@@H](C)[C@@H](O)[C@@H](C)[C@H](OC(C)=O)[C@@H]1C	L400	-	-	MIC	-	-	0.1 µg/mL
Cn1cnc2c(NC(=O)c3cccc(Cl)c3)nc(Cl)cc21	H37Rv	-	-	MIC99	visual reading	-	25 µM
COc1ccc(-c2nnc(CCON=C(c3ccccc3)c3ccccc3)o2)cc1	-	12.5 µg/mL	-	inhibition	-	-	7–56%
Cc1cccc(CSc2nc(=O)[nH]c3nc[nH]c23)c1	H37Rv	-	-	MIC90	-	-	>6.25 µg/mL
Cn1cnc2c(NC(=O)Nc3cccc(F)c3)nc(Cl)cc21	H37Rv	-	-	MIC99	visual reading	-	6.5 µM
O=C1CSC(c2ccccc2O)N1C(=O)NCCCN1c2ccccc2Sc2ccccc21	H37Rv	50 µg/mL	-	inhibition	agar	-	65%
O=c1nc(SCc2ccc(Cl)cc2[N+](=O)[O-])c2[nH]cnc2[nH]1	H37Rv	-	-	MIC90	-	-	>6.25 µg/mL
CO/N=C1\CN(c2nc3c(cc2F)c(=O)c(C(=O)O)cn3C2CC2)CC1CN	45 strains (drug-susceptible)	-	-	MIC50	-	-	4 µg/mL
CCOC(=O)C[N+]12CCC34c5cc(OC)c(OC)cc5N5C(=O)CC6OCC=C(C1)C(CC32)C6C54.[Cl-]	H37Rv	-	-	MIC	BACTEC	-	≥12.5 µg/mL
Cc1ccc2nc(SCc3c(F)cccc3Cl)[nH]c2c1	MY 332/88	-	-	MIC	-	-	32 µM
CCCCOc1ccc(NC(=S)Nc2ccc(N(C)C)cc2)cc1	Ravenel #226	-	-	MIC	-	-	2 µg/mL
Cc1cc(=O)c2c([nH]1)c1c(c3[nH]c(C)cc(=O)c32)Oc2ccccc2O1	INH-r	-	-	MIC	-	-	1.6 µg/mL
Cc1ccccc1/C=C1/SC(c2ccccc2C)N(C(=O)NCCCN2c3ccccc3Sc3ccccc32)C1=O	H37Rv	50 µg/mL	-	inhibition	agar	-	47%
CCCCCCN1C(=O)c2cc(Cl)nnc2Oc2ccccc21	H37Rv	12.5 µg/mL	-	inhibition	BACTEC	-	8%
CN(C)c1ccc(/C=N/NC(=O)c2ccccc2Cl)cc1	-	-	-	MIC	-	-	10 µg/mL
Cc1ccc2nc(SCc3ccc(C(N)=S)cc3)[nH]c2c1	MY 332/88	-	-	MIC	-	-	8 µM
CN[C@@H]1[C@H](O[C@H]2[C@H](O[C@H]3[C@H](O)[C@@H](O)[C@H](N=C(N)N)[C@@H](O)[C@@H]3N=C(N)N)O[C@@H](C)[C@]2(O)C=O)O[C@@H](CO)[C@H](O)[C@H]1O	H37RV (DL8280-R)	-	-	MIC	-	-	5 µg/mL
NC(Cc1c[nH]c2ccccc12)C(=O)NC(Cc1c[nH]c2ccccc12)C(=O)NC(Cc1c[nH]c2ccccc12)C(=O)O	H37Rv	-	-	MIC bound	BACTEC	-	≤12.5 µg/mL
O=C1NC(NNC(=O)c2ccncc2)=N/C1=C\c1cccc(Cl)c1	ATCC 35838 (rifampin-resistant)	-	-	MIC	-	-	≤0.39 µg/mL
O=c1oc2ccc(Br)cc2cc1-c1cs/c(=N/N=C/c2ccc(Cl)c(Cl)c2)n1C1CCCCC1	H37Rv	6.25 µg/mL	-	inhibition	-	-	4%
CC(C)=CC(=O)NNC(=O)C=C(C)C	-	-	-	MIC	-	-	>200 µg/mL
CN(C)c1ncnc2c1ncn2C1OC(CO)C2NP(=O)(N(CCCl)CCCl)OC21	H37Rv	-	-	MIC bound	BACTEC	-	>12.5 µg/mL
CCCCCCCCNC1CC(=O)NC1=O	H37Rv	-	-	MIC	-	-	≤20 µg/mL
O=CC(NC(=O)N(CCCl)N=O)C(O)C(O)C(O)CO	H37Rv	-	-	MIC bound	BACTEC	-	>12.5 µg/mL
O=C(NCCCN1c2ccccc2Sc2ccccc21)N1C(=O)/C(=C\c2ccc(O)cc2)SC1c1ccc(O)cc1	H37Rv	25 µg/mL	-	inhibition	agar	-	24%
NCCC(O)C(N)CC(=O)NC1CNC(=O)C(C2CCN=C(N)N2)NC(=O)/C(=C/NC(N)=O)NC(=O)C(CO)NC(=O)C(CO)NC1=O	H37RV (DL8280-R)	-	-	MIC	-	-	12.5 µg/mL
O=C(/N=C/c1ccccc1)NCCCN1c2ccccc2Sc2ccccc21	H37Rv	25 µg/mL	-	inhibition	agar	-	18%
COc1ccc(Cc2cc(N=NC(N)=O)c(C)cc2O)cc1	H37Rv	-	-	MIC bound	BACTEC	-	>12.5 µg/mL
NC[C@H]1O[C@H](O[C@H]2[C@H](O)[C@@H](O[C@H]3O[C@H](CO)[C@@H](O)[C@H](N)[C@H]3O)[C@H](N)C[C@@H]2N)[C@H](O)[C@@H](O)[C@@H]1O	H37Rv	-	-	MIC	-	-	25 µg/mL
Cc1cccc(CSc2nc3ccc(C)cc3[nH]2)c1	MY 332/88	-	-	MIC	-	-	32 µM
Cc1ccc(CSc2nc(=O)[nH]c3nc[nH]c23)cc1	H37Ra	-	-	MIC	-	-	>12.8 µg/mL
COc1cccc(C2SCC(=O)N2C(=O)NCCCN2c3ccccc3Sc3ccccc32)c1	H37Rv	25 µg/mL	-	inhibition	agar	-	32%
CCOC(=O)C1=C(NC)C(=O)N(C)C1c1ccccc1	H37Rv	-	-	MIC bound	BACTEC	-	>12.8 µg/mL
COc1ccc(/C=N/N=c2\scc(-c3cc4cc(Br)ccc4oc3=O)n2C2CCCCC2)cc1	H37Rv	-	-	MIC	-	-	>6.25 µg/mL
CCCCCCCCCN1C(=O)CC(SCCNC(=O)c2ccc(OCCCCCC)cc2)C1=O	H37Rv	-	-	MIC	-	-	≤20 µg/mL
CC(=O)C1=C(O)C(Nc2ccccc2)=CC(=O)C1=Nc1ccccc1	H37Rv	128 µg/mL	-	inhibition	BACTEC	-	99%
C[C@H]1COc2c(N3CCN(C)CC3)c(F)cc3c(=O)c(C(=O)O)cn1c23	45 strains (drug-susceptible)	-	-	MIC90	-	-	1 µg/mL
O=S(=O)(NNc1ccccc1)c1ccc(Cl)cc1	-	-	-	MIC	-	-	>200 µg/mL
CCCCCCCCN1C(=O)c2cc(Cl)nnc2Oc2ccc(Cl)cc21	H37Rv	-	-	EC50	BACTEC	-	12.5 µg/mL
O=C1NNS(=O)(=O)c2ccccc21	-	-	-	MIC	-	-	>200 µg/mL
Cn1cnc2c(NC(=O)c3ccccc3)nc(Cl)cc21	H37Rv	-	-	MIC99	visual reading	-	>25 µM
CCc1cc(C(N)=S)ccn1	H37Rv	-	-	MIC	-	-	20 µg/mL
O=C1NC(=Nc2ccc(Cl)cc2Cl)N/C1=C\c1ccc(Cl)cc1Cl	H37Rv	12.5 µg/mL	VERO	inhibition	-	-	96%
C/C=C/C(=O)NNC(=O)/C=C/C	-	-	-	MIC	-	-	>200 µg/mL
O=C1NC(Nc2ccc(Cl)cc2)=N/C1=C\c1ccccc1Cl	H37Rv	12.5 µg/mL	-	inhibition	-	-	99%
Cn1cnc2c(NC(=O)Nc3ccccc3F)nc(Cl)cc21	H37Rv	-	-	MIC99	visual reading	-	6.5 µM
O=C1NC(NNC(=O)c2ccncc2)=N/C1=C\c1ccc(Cl)cc1	Rifampicin-resistant	-	-	MBC	-	-	25 µg/mL
Nc1nc2c(-c3ccc([N+](=O)[O-])cc3)nnn2c2ccccc12	H37Rv	12.5 µg/mL	-	inhibition	BACTEC	-	-22%
O=C1CCC(c2ccc(-c3ccccc3)cc2)=NN1	-	-	-	MIC	-	-	>10 µg/mL
CC1=C[C@H]2O[C@@H]3[C@H](O)[C@@H](O)[C@@](C)([C@@]2(CO)CC1)[C@]31CO1	H37Rv	12.5 µg/mL	-	inhibition	BACTEC	-	13%
O=c1oc2ccc(Br)cc2cc1-c1cs/c(=N/N=C/c2ccc(Br)cc2)n1C1CCCCC1	H37Rv	-	-	EC50	-	-	>6.25 µg/mL
C/C(=N\OCc1nnc(Nc2ccc(Br)cc2)o1)c1ccccc1	-	12.5 µg/mL	-	inhibition	-	-	7–56%
Cc1ccccc1S(=O)(=O)Nc1nc(Cl)cc2c1ncn2C	H37Rv	-	-	MIC99	visual reading	-	>25 µM
O=C(NNC(c1ccccc1)C(F)(F)F)c1ccncc1	-	0.5 µM	-	inhibition	BACTEC	-	0%
Cc1ccc(/C=N/N=c2/scc(-c3cc4cc(Br)ccc4oc3=O)n2C2CCCCC2)cc1	H37Rv	-	-	EC50	-	-	>6.25 µg/mL
O=c1nc(SCc2ccccc2Cl)c2[nH]cnc2[nH]1	H37Ra	-	-	MIC	-	-	16 µg/mL
CCOc1ccc(NC(=S)Nc2ccc(OCC(C)C)cc2)cc1	H37RV #225	-	-	MIC	-	-	7.8 µg/mL
Cn1cnc2c(NC(=O)c3ccc(Cl)cc3)nc(Cl)cc21	H37Rv	-	-	MIC99	visual reading	-	12.5 µM

The last 8 rows once more:

structure	strain	dose	cell line	read-out	method	mutations	result
O=c1oc2ccc(Br)cc2cc1-c1cs/c(=N/N=C/c2ccc(Br)cc2)n1C1CCCCC1	H37Rv	-	-	EC50	-	-	>6.25 µg/mL
C/C(=N\OCc1nnc(Nc2ccc(Br)cc2)o1)c1ccccc1	-	12.5 µg/mL	-	inhibition	-	-	7–56%
Cc1ccccc1S(=O)(=O)Nc1nc(Cl)cc2c1ncn2C	H37Rv	-	-	MIC99	visual reading	-	>25 µM
O=C(NNC(c1ccccc1)C(F)(F)F)c1ccncc1	-	0.5 µM	-	inhibition	BACTEC	-	0%
Cc1ccc(/C=N/N=c2/scc(-c3cc4cc(Br)ccc4oc3=O)n2C2CCCCC2)cc1	H37Rv	-	-	EC50	-	-	>6.25 µg/mL
O=c1nc(SCc2ccccc2Cl)c2[nH]cnc2[nH]1	H37Ra	-	-	MIC	-	-	16 µg/mL
CCOc1ccc(NC(=S)Nc2ccc(OCC(C)C)cc2)cc1	H37RV #225	-	-	MIC	-	-	7.8 µg/mL
Cn1cnc2c(NC(=O)c3ccc(Cl)cc3)nc(Cl)cc21	H37Rv	-	-	MIC99	visual reading	-	12.5 µM